Compound potency records, mixed from different reports. Data source: NIAID ChemDB in PubChem.

All rows: whole-cell or culture tests; agent: Mycobacterium tuberculosis

Two numbers with a dash give a range or band.

compound,read by,changes,tested at,strain,read-out,conditions,result
O=C(COc1cnccn1)NNC(=S)Nc1ccc(Cl)cc1Cl,-,-,-,H37Rv,MIC,-,65 µg/mL
NNC(=O)c1ccncc1,-,-,-,Isolate G0,MIC,-,0.031 µg/mL
C[C@@H]1CN(c2c(F)c(N)c3c(=O)c(C(=O)O)cn(C4CC4)c3c2F)C[C@H](C)N1,-,-,-,Isolate 3,MIC,-,0.5 µg/mL
CO[C@H]1/C=C/O[C@@]2(C)Oc3c(C)c(O)c4c(O)c(c(/C=N/N5CCN(C)CC5)c(O)c4c3C2=O)NC(=O)/C(C)=C\C=C\[C@H](C)[C@H](O)[C@@H](C)[C@@H](O)[C@@H](C)[C@H](OC(C)=O)[C@@H]1C,-,-,-,H37Rv,Mean MIC,-,0.075 µg/mL
CC(=O)NC[C@H]1CN(c2ccc(N3CCOCC3)c(F)c2)C(=O)O1,resazurin,INH RIF resistant,-,Clinical isolate 109,MIC,-,0.25 µg/mL
Fc1ccc(-n2c(=S)oc3ccc(F)cc3c2=S)cc1,-,-,-,My 331/88,MIC,21 d,2 µM
CCc1cc(C(N)=S)ccn1,-,-,-,H37Ra,Mean MIC,-,1.09 µg/mL
Cc1ccnc(NS(=O)(=O)c2ccc(NC(=O)Nc3ccc(Cl)c(C(F)(F)F)c3)cc2)n1,BACTEC,-,-,H37Rv,MIC bound,-,>12.5 µg/mL
CCc1nc2ccc(C)cc2n1CCCNc1ccc(C)cc1C,turbidity / fluorescence,QcrB M342T,-,H37Rv,MIC90,-,6.2 µM
CC(C)(C)c1ncc(CCCN=C(N)N)[nH]c1=O,-,-,-,INH-r,MIC,-,6.3 µg/mL
O=C1c2cc(Cl)ccc2-n2c1nc1ncccc1c2=O,-,-,-,H37Rv,MBC,-,4 µg/mL
O=C(NNc1ccc([N+](=O)[O-])cn1)Nc1cccc2ccccc12,BACTEC,-,-,H37Rv,MIC,-,≥12.5 µg/mL
CC1COc2c(N3CCN(C)CC3)c(F)cc3c(=O)c(C(=O)O)cn1c23,broth dilution,-,-,STR-resistant 136570,MIC,-,0.5 µg/mL
O=C1c2cc(F)c(F)cc2-n2c1nc1ncccc1c2=O,-,-,-,H37Rv,MIC,-,>4 µg/mL
COc1ccc(-c2nc3c(=O)n(C)c(=O)n(C)c3nc2-c2ccc(OC)cc2)cc1,BACTEC,-,-,H37Rv,MIC bound,-,>12.5 µg/mL
CO[C@H]1/C=C/O[C@@]2(C)Oc3c(C)c(O)c4c(O)c(c(/C=N/N5CCN(C6CCCC6)CC5)c(O)c4c3C2=O)NC(=O)/C(C)=C\C=C\[C@H](C)[C@H](O)[C@@H](C)[C@@H](O)[C@@H](C)[C@H](OC(C)=O)[C@@H]1C,-,-,-,H37Rv (viomycin-resistant),MIC,-,1.25 µg/mL
CCCCCCCCc1ccc2c(c1)C(=O)c1nc3ccncc3c(=O)n1-2,-,-,-,TN2050RFLF:CO (MDR),MIC,-,≤0.015 µg/mL
CCCCCCCCCC/C(C)=N/NC(=O)c1ccc[n+](C)c1.Cc1ccc(S(=O)(=O)O)cc1,BACTEC,-,12.5 µg/mL,H37Rv,inhibition,-,-15%
CN[C@@H]1[C@@H](O)[C@@H](O[C@@H]2[C@@H](O)[C@H](O[C@H]3O[C@H](CN)CC[C@H]3N)[C@@H](N)C[C@H]2N)OC[C@]1(C)O,-,-,-,H37Rv,Median MIC,-,4 µg/mL
CCc1nc2ccccc2n1CCCCOc1cccc(C)c1,turbidity / fluorescence,QcrB T313I,-,H37Rv,MIC90,-,61 µM
O=c1[nH][nH]c(=O)c2nc3c(nc12)c1nc2c(=O)[nH][nH]c(=O)c2nc1c1nc2c(=O)[nH][nH]c(=O)c2nc31,BACTEC,-,-,H37Rv,MIC,-,≥12.5 µg/mL
O=C([C@@H](O)CO)N1CC=C(c2c(F)cc(N3C[C@H](COc4ccon4)OC3=O)cc2F)CC1,broth dilution,-,-,H37Rv INH-resistant (ATCC 35822),MIC,-,1 µg/mL
CO[C@H]1/C=C/O[C@@]2(C)Oc3c(C)c(O)c4c(O)c(c(/C=N/N5CCN(C/C=C/c6ccccc6)CC5)c(O)c4c3C2=O)NC(=O)/C(C)=C\C=C\[C@H](C)[C@H](O)[C@@H](C)[C@@H](O)[C@@H](C)[C@H](OC(C)=O)[C@@H]1C,-,-,-,29 (rifampin-resistant),MBC,-,0.2 µg/mL
O=c1oc2ccc(F)cc2c(=S)n1-c1ccc(F)cc1,-,-,-,My 331/88,MIC,14 d,1 µM
CC(C)N=c1cc2n(-c3ccc(Cl)cc3)c3ccccc3nc-2cc1Nc1ccc(Cl)cc1,broth dilution / resazurin,-,-,MDR15,MIC,-,4 µg/mL
O=C1CCCC2=C1CC1=C(CCCC1=O)N2c1cccc2ccccc12,BACTEC,-,12.5 µg/mL,H37Rv,inhibition,-,19%
NCC[C@H](O)C(=O)N[C@@H]1C[C@H](N)[C@@H](O[C@H]2O[C@H](CN)[C@@H](O)[C@H](O)[C@H]2O)[C@H](O)[C@H]1O[C@H]1O[C@H](CO)[C@@H](O)[C@H](N)[C@H]1O,-,-,-,2S,MIC,-,2.5 µg/mL
NC[C@@H]1O[C@H](O[C@H]2[C@@H](O)[C@H](O[C@@H]3[C@@H](O)[C@H](N)C[C@H](N)[C@H]3O[C@H]3O[C@H](CO)[C@@H](O)[C@H](O)[C@H]3N)O[C@@H]2CO)[C@H](N)[C@@H](O)[C@@H]1O,-,-,-,H37Ra,Mean MIC,-,4.5 µg/mL
CO[C@H]1/C=C/O[C@@]2(C)Oc3c(C)c(O)c4c(O)c(c5c(c4c3C2=O)NC2(CCN(CC(C)C)CC2)N=5)=NC(=O)/C(C)=C\C=C\[C@H](C)[C@H](O)[C@@H](C)[C@@H](O)[C@@H](C)[C@H](OC(C)=O)[C@@H]1C,-,-,-,2275 (rifampin-resistant),MBC,-,0.8 µg/mL
Nc1nc(N)c(N=Nc2ccc([As](=O)(O)O)c(O)c2)c(N)n1,BACTEC,-,12.5 µg/mL,H37Rv,inhibition,-,6%
Cc1ccc2oc(=O)n(-c3cccc(F)c3)c(=S)c2c1,-,-,-,My 331/88,MIC,14 d,4 µM
NNC(=O)c1ccncc1,resazurin,-,-,Pyr-r,MIC,-,50–100 µg/mL
NC(=O)c1cn([C@@H]2O[C@H](CO)[C@@H](O)[C@H]2O)c2nc(N)nc(N)c2c1=O,resazurin,-,6.25 µg/mL,H37Rv,inhibition,-,-9%
NC(=O)c1cnccn1,-,-,-,Isolate 10350 monodrug-resistant,MIC,-,>300 µg/mL
O=c1oc2ccc(Br)cc2c(=S)n1-c1ccc(C(F)(F)F)cc1,-,-,-,My 331/88,MIC,14 d,2 µM
COc1ccc2oc3cc(NCCN(C)C)ccc3c(=O)c2c1,BACTEC,-,-,H37Rv,MIC bound,-,>12.5 µg/mL
O=C1c2cc(C(F)(F)F)ccc2-n2c1nc1ncccc1c2=O,-,-,-,H37Rv,MIC,-,0.13 µg/mL
Nc1nc2c(c(=O)[nH]1)CN(CCCN1CCN(CCCN3CNc4nc(N)[nH]c(=O)c4C3)CC1)CN2,BACTEC,-,-,H37Rv,MIC bound,-,>12.5 µg/mL
C=C/C(C)=C/[C@@]1(C)SC(=O)C(C)=C1O,-,-,-,TRC-resistant,MIC,-,5 µg/mL
Fc1ccc2oc(=S)n(-c3ccc(Cl)c(Cl)c3)c(=S)c2c1,-,-,-,My 331/88,MIC,21 d,2 µM
CO[C@H]1/C=C/O[C@@]2(C)Oc3c(C)c(O)c4c(O)c(c5c(c4c3C2=O)NC2(CCN(CC(C)C)CC2)N=5)=NC(=O)/C(C)=C\C=C\[C@H](C)[C@H](O)[C@@H](C)[C@@H](O)[C@@H](C)[C@H](OC(C)=O)[C@@H]1C,-,-,-,H37Rv,Mean MIC,-,0.04 µg/mL
CC(C)(CO)NCC(C)(C)NC(Cc1ccccc1Cl)c1ccccc1.Cl.Cl,BACTEC,-,-,H37Rv,MIC,-,≥12.8 µg/mL
NNC(=O)c1ccncc1,-,-,-,Isolate 1,MIC,-,>32 µg/mL
O=C(/C=C/c1ccccc1)NC1C=Nc2ccccc2NC1=O,BACTEC,-,-,H37Rv,MIC bound,-,>12.5 µg/mL
S=c1oc2ccc(Br)cc2c(=S)n1-c1ccc(Cl)cc1,-,-,-,My 331/88,MIC,21 d,2 µM
CC1(C)S[C@@H]2[C@H](NC(=O)[C@H](N)c3ccccc3)C(=O)N2[C@H]1C(=O)O,-,-,-,1578,MIC,-,46 µM
NNC(=O)c1ccncc1,broth dilution,-,-,Erdman,MIC,-,0.06 µg/mL
NCC[C@H](O)C(=O)N[C@@H]1C[C@H](N)[C@@H](O[C@H]2O[C@H](CN)[C@@H](O)[C@H](O)[C@H]2O)[C@H](O)[C@H]1O[C@H]1O[C@H](CO)[C@@H](O)[C@H](N)[C@H]1O,-,-,-,H37Ra,Median MIC,-,0.63 µg/mL
C[C@H]1COc2c(N3CCN(C)CC3)c(F)cc3c(=O)c(C(=O)O)cn1c23,-,-,-,Isolate 5,MIC,-,0.5 µg/mL
Cc1ccc(-c2cs/c(=N\NC(=O)COc3cnccn3)n2C(C)C)cc1,-,-,-,H37Rv,MIC,-,9.5 µg/mL
COc1cc(/C=C/C2=[N+](C)c3ccccc3C2(C)C)ccc1O,BACTEC,-,-,H37Rv,MIC bound,-,>6.25 µg/mL
CCc1nc2ccccc2n1CCCNc1ccc(C)c(C)c1,turbidity / fluorescence,QcrB M342T,-,H37Rv,fold resistance,-,11
COC(OC)c1ccc2c(c1)C(=O)c1nc3ccncc3c(=O)n1-2,-,-,-,H37Rv,MIC,-,0.13 µg/mL
Cc1ccc2nc(/C=C/c3ccccc3Cl)c(=O)[nH]c2c1,BACTEC,-,12.5 µg/mL,H37Rv,inhibition,-,-51%
CCCCC(c1ccc2c(c1)C(=O)c1nc3ccncc3c(=O)n1-2)C(C)C,-,-,-,H37Rv,MIC,-,0.06 µg/mL
CC(C)n1c(-c2ccc(Br)cc2)cs/c1=N\NC(=O)COc1cnccn1,-,-,-,H37Rv,MIC,-,8.1 µg/mL
NC(=O)c1cnccn1,-,-,-,VA205/niacin+,MIC,-,>2048 µg/mL
CC(C)CCC[C@@H](C)[C@H]1CC[C@H]2[C@]3(C)CC[C@H]4C[C@@H](CCC=C(c5cc(Cl)c(O)c(C(=O)O)c5)c5cc(Cl)c(O)c(C(=O)O)c5)CC[C@]4(C)[C@H]3CC[C@@]21C,BACTEC,-,12.5 µg/mL,H37Rv,inhibition,-,0%
NC[C@@H]1O[C@H](O[C@H]2[C@@H](O)[C@H](O[C@@H]3[C@@H](O)[C@H](N)C[C@H](N)[C@H]3O[C@H]3O[C@H](CO)[C@@H](O)C[C@H]3N)O[C@@H]2CO)[C@H](N)[C@@H](O)[C@@H]1O[C@H]1O[C@H](CO)[C@@H](O)[C@H](O)[C@@H]1O,-,-,-,Aoyama B,EC50,-,25–50 µg/mL
O=C1c2cc(Cl)ccc2-n2c1nc1cc(F)ccc1c2=O,-,-,-,H37Rv,MIC,-,0.13 µg/mL
CCOC(=O)COC(=O)C1C(C(N)=O)N(CC(=O)OCC)CCN1CC(=O)OCC,BACTEC,-,12.8 µg/mL,H37Rv,inhibition,-,25%
C[C@H]1COc2c(N3CCN(C)CC3)c(F)cc3c(=O)c(C(=O)O)cn1c23,-,-,-,3R,MIC,-,0.5 µg/mL
CO[C@H]1/C=C/O[C@@]2(C)Oc3c(C)c(O)c4c(O)c(c5c(c4c3C2=O)NC2(CCN(CC(C)C)CC2)N=5)=NC(=O)/C(C)=C\C=C\[C@H](C)[C@H](O)[C@@H](C)[C@@H](O)[C@@H](C)[C@H](OC(C)=O)[C@@H]1C,-,-,-,11 (rifampicin-susceptible),MIC,-,≤0.062 µg/mL
CN(C)c1ccc(O)c2c1C[C@H]1C[C@H]3[C@H](N(C)C)C(=O)C(C(N)=O)=C(O)[C@@]3(O)C(=O)C1=C2O,-,-,-,H37Rv,Mean MIC,-,5 µg/mL
CCc1nc2ccccc2n1CCCCOc1ccc(C)c(Cl)c1,turbidity / fluorescence,QcrB M342T,-,H37Rv,MIC90,-,31 µM
CCCCn1c(-c2ccc(OC)cc2)cs/c1=N\NC(=O)COc1cnccn1,-,-,-,H37Rv,MIC,-,18 µg/mL
COc1ccc(C(C)NNC(=O)c2cc[n+]([B]C#N)cc2)c(OC)c1,BACTEC,-,0.5 µM,-,inhibition,-,0%
CCC[C@@H]1C[C@@H](C(=O)N[C@@H]([C@H]2O[C@H](SC)[C@H](O)[C@@H](O)[C@H]2O)[C@@H](C)O)N(C)C1,-,-,-,H37Ra,Median MIC,-,>256 µg/mL
COc1ccc(C(=O)/C=C/c2ccc3c(c2)OCO3)c(OCc2ccccc2)c1,BACTEC,-,-,H37Rv,MIC bound,-,>12.5 µg/mL
Cc1ccc2oc(=S)n(-c3cccc(F)c3)c(=S)c2c1,-,-,-,My 331/88,MIC,21 d,8 µM
CNC(=O)Nc1ccc(C)c(Cl)c1,BACTEC,-,-,H37Rv,MIC bound,-,>12.5 µg/mL
CO[C@H]1/C=C/O[C@@]2(C)Oc3c(C)c(O)c4c(=O)c(c5oc6cc(N7CCN(CC(C)C)CC7)cc(=O)c6nc5c4c3=C2O)NC(=O)/C(C)=C\C=C\[C@H](C)[C@H](O)[C@@H](C)[C@@H](O)[C@@H](C)[C@H](OC(C)=O)[C@@H]1C,-,-,-,2257 (rifampicin-susceptible),MIC,-,0.0078 µg/mL

Repeating the first 7 entries:

compound | read by | changes | tested at | strain | read-out | conditions | result
O=C(COc1cnccn1)NNC(=S)Nc1ccc(Cl)cc1Cl | - | - | - | H37Rv | MIC | - | 65 µg/mL
NNC(=O)c1ccncc1 | - | - | - | Isolate G0 | MIC | - | 0.031 µg/mL
C[C@@H]1CN(c2c(F)c(N)c3c(=O)c(C(=O)O)cn(C4CC4)c3c2F)C[C@H](C)N1 | - | - | - | Isolate 3 | MIC | - | 0.5 µg/mL
CO[C@H]1/C=C/O[C@@]2(C)Oc3c(C)c(O)c4c(O)c(c(/C=N/N5CCN(C)CC5)c(O)c4c3C2=O)NC(=O)/C(C)=C\C=C\[C@H](C)[C@H](O)[C@@H](C)[C@@H](O)[C@@H](C)[C@H](OC(C)=O)[C@@H]1C | - | - | - | H37Rv | Mean MIC | - | 0.075 µg/mL
CC(=O)NC[C@H]1CN(c2ccc(N3CCOCC3)c(F)c2)C(=O)O1 | resazurin | INH RIF resistant | - | Clinical isolate 109 | MIC | - | 0.25 µg/mL
Fc1ccc(-n2c(=S)oc3ccc(F)cc3c2=S)cc1 | - | - | - | My 331/88 | MIC | 21 d | 2 µM
CCc1cc(C(N)=S)ccn1 | - | - | - | H37Ra | Mean MIC | - | 1.09 µg/mL

ECn: concentration that inhibits the pathogen or its effect by n%. An empty or dashed field is not shown. Inhibition is in % at the dose shown (toxicity tests: loss of growth or viability). Conditions beyond the fields shown may differ between rows. Fold resistance: result on the changed form divided by that on wild type. MIC bound comes from a single tested concentration. A number after MIC or MFC names an inhibition level or a share of isolates.